Compound potency records, mixed from different reports. Data source: NIAID ChemDB in PubChem.

Common to all: whole-cell or culture tests; species: Human herpesvirus 6; endpoint: EC50

Neighbouring rows are from separate reports.

SMILES,read by,cells,strain,result
CC(C)Nc1nc2cc(Cl)c(Cl)cc2n1[C@H]1O[C@@H](CO)[C@H](O)[C@@H]1O,flow cytometry,HSB-2,GS (subtype 6A),>125 µM
OC[C@H]1CC(n2c(NC3CC3)nc3cc(Cl)c(Cl)cc32)[C@H](O)[C@@H]1O,hybridisation,MOLT-3,6B,>100 µM
Nc1ncc2c(ncn2COC(CO)CO)n1,-,Human cord blood lymphocytes,-,0.012 µM
N#CC1C(c2ccc(Cl)cc2)Nc2ccccc2S1(=O)=O,cytopathic effect,MOLT-3,Z29 (TYPE 6B),1.5 µg/mL
O=C(NCc1ccc(Cl)cc1)c1c[nH]c2ccc(C#CCO)cc2c1=O,cytopathic effect,-,1 isolates,>100 µM
O=C(O)P(=O)(O)O,antigen,HSB-2,GS,49 µM
Cc1c(S(=O)(=O)c2ccc(Cl)cc2)c(NC(=O)C(F)(F)F)n(Cc2ccccc2)c1C,hybridisation,MOLT-3,Z29 (TYPE 6B),10 µg/mL
Cn1cc(C(=O)NCc2ccc(Cl)cc2)c(=O)c2cc(CN3CCOCC3)ccc21,cytopathic effect,HSB-2,-,>100 µM
Nc1nc2c(ncn2C[C@]2(CO)C[C@H]2CO)c(=O)[nH]1,cytopathic effect,MOLT-3,TYPE 6B,3.4 µg/mL
Nc1nc(Cl)c2ncn(/C=C3/C[C@H]3CO)c2n1,ELISA,-,GS,50 µM
Nc1nc2c(ncn2C[C@]2(CO)C[C@H]2CO)c(=O)[nH]1,cytopathic effect,HSB-2,GS (subtype 6A),2.64 µg/mL
Cn1cc(C(=O)NCc2ccc(Cl)cc2)c(=O)c2cc(CN3CCOCC3)ccc21,antigen / flow cytometry,CBL,Z-29 (TYPE B),>22 µM
Nc1nc2c(ncn2CCC(CO)CO)c(=O)[nH]1,-,MOLT-3,Z-29 (subtype 6B),>100 µg/mL
O[C@@H]1[C@H](O)CO[C@H]1n1c(NC2CC2)nc2cc(Cl)c(Cl)cc21,hybridisation,HSB-2,6a,>100 µM
NC(=O)c1c(Cl)c(-c2cccnc2)n2c1CCCC2,hybridisation,HSB-2,TYPE A (GS),0.053 µM
CCCSc1nc(N)nc2c1ncn2/C=C1/C[C@@H]1CO,flow cytometry,HSB-2,TYPE 6B,3 µM
Nc1ncc2c(ncn2COC(CO)CO)n1,cytopathic effect,-,GS (TYPE 6),0.005 µg/mL
Nc1nc2c(ncn2COC(CO)CO)c(=O)[nH]1,-,Human cord blood lymphocytes,-,1.3 µM
C#CCNc1nc(N)nc2c1ncn2/C=C1/C[C@@H]1CO,flow cytometry,HSB-2,TYPE 6B,5.4 µM
N#CC1C(c2ccc(Cl)cc2)Nc2sccc2S1(=O)=O,hybridisation,MOLT-3,Z29 (TYPE 6B),1.8 µg/mL
Nc1nc2c(ncn2COC(CO)CO)c(=O)[nH]1,hybridisation,MOLT-3,Z29 (TYPE 6B),68.6 µM
C=CCNc1nc(N)nc2c1ncn2/C=C1/C[C@@H]1CO,flow cytometry,HSB-2,TYPE 6B,3.6 µM
O=C(NCc1ccc(Cl)cc1)c1cn2c3c(cc(CN4CCOCC4)cc3c1=O)OC(c1cccnc1)C2,antigen / flow cytometry,HSB-2,GS (TYPE A),>18.8 µM
Nc1nc2c(ncn2COC(CO)CO)c(=O)[nH]1,antigen,HSB-2,GS,25 µM
C=CCOc1nc(N)nc2c1ncn2/C=C1/C[C@@H]1CO,flow cytometry,HSB-2,TYPE 6B,<1.1 µM
Nc1nc2c(ncn2[C@@H]2C[C@H](CO)[C@H]2CO)c(=O)[nH]1,cytopathic effect,HSB-2,GS (subtype 6A),2.17 µg/mL
O[C@@H]1[C@H](O)CO[C@H]1n1c(Br)nc2cc(Cl)c(Cl)cc21,hybridisation,HSB-2,6a,>10 µM
Nc1ccn(/C=C2/CC2(CO)CO)c(=O)n1,flow cytometry,HSB-2,TYPE 6B,22.8 µM
OC[C@H]1O[C@@H](n2c(Br)nc3cc(Cl)c(Cl)cc32)[C@H](O)[C@@H]1O,flow cytometry,HSB-2,GS (subtype 6A),125 µM
Nc1ncnc2c1ncn2/C=C1/CC1(CO)CO,flow cytometry,HSB-2,TYPE 6A,17.8 µM
CC(C)Nc1nc2cc(Cl)c(Cl)cc2n1[C@H]1O[C@H](C)[C@H](O)[C@@H]1O,hybridisation,HSB-2,6a,62 µM
O[C@@H]1[C@H](O)[C@H](O)CO[C@H]1n1c(Br)nc2cc(Cl)c(Cl)cc21,flow cytometry,CBL,Z-29 (subtype 6B),>95 µM
N#CC1C(c2ccccc2)Nc2ccccc2S1(=O)=O,cytopathic effect,HSB-2,GS (TYPE 6A),>20 µg/mL
Nc1nc2c(ncn2COCCO)c(=O)[nH]1,antigen,HSB-2,GS,59 µM
COc1nc(N)nc2c1ncn2/C=C1/CC1(CO)CO,flow cytometry,HSB-2,TYPE 6B,2.2 µM
Nc1nc2c(ncn2COC(CO)CO)c(=O)[nH]1,-,HSB-2,GS (subtype 6A),8 µg/mL

Repeating the final 3 entries:

SMILES | read by | cells | strain | result
Nc1nc2c(ncn2COCCO)c(=O)[nH]1 | antigen | HSB-2 | GS | 59 µM
COc1nc(N)nc2c1ncn2/C=C1/CC1(CO)CO | flow cytometry | HSB-2 | TYPE 6B | 2.2 µM
Nc1nc2c(ncn2COC(CO)CO)c(=O)[nH]1 | - | HSB-2 | GS (subtype 6A) | 8 µg/mL

ECn is the concentration giving n% inhibition of infection, replication or growth. An empty or dashed field is not shown.